Laboratory results from patent publication US5783178A, “Polymer linked biological agents” (Supratek Pharma. Inc., priority 1994, dated 1998).

Tested on: HSV-1
Test: Effect on virus production in Vero cells
Assay type: cell-based, strain L2

5'-CGTTCCTCCTGU
Infectious Titer of HSV-1 (oligonucleotide 1 μM, 22 hours past infection): 5 × 10^6 PFU/ml | Infectious Titer of HSV-1 (oligonucleotide 1 μM, 39 hours past infection): 1 × 10^7 PFU/ml | Infectious Titer of HSV-1 (oligonucleotide 2 μM, 22 hours past infection): 5 × 10^6 PFU/ml | Infectious Titer of HSV-1 (oligonucleotide 2 μM, 39 hours past infection): 1 × 10^7 PFU/ml
